A mixed list of measured activities; the numbers were collected in NIAID ChemDB.

Common to all: whole-cell or culture tests; organism: Aspergillus fumigatus; measure: MIC

Rows are shuffled and stem from different studies. a–b is a range or a potency band.

{"compound": "CC(C)CCCCCCCCCC1CC(=O)NCC(=O)N[C@@H](CCCCN)C(=O)N[C@@H](C(C)C)C(=O)N1", "strain or isolate": "IFM4942", "value": ">80 µg/mL"}
{"compound": "CCCCCCCS(=O)(=O)[C@H](C)[C@](O)(Cn1cncn1)c1ccc(F)cc1F", "strain or isolate": "MTU6001", "value": "3.13 µg/mL"}
{"compound": "CC(C)c1c(C(c2ccccc2)n2cncn2)cnn1-c1ccccc1", "value": ">200 µM"}
{"compound": "C[N+](C)(C)CCOP(=O)([O-])OCCCCCCCCCCCCCCCCCCCCCCOP(=O)([O-])OCC[N+](C)(C)C", "value": "0.08 µg/mL"}
{"compound": "COC(=O)N[C@H](C(=O)NN(CC[C@@]1(Cc2ccccc2)C(=O)N(C2c3ccccc3C[C@H]2O)C[C@@H]1O)Cc1ccc(Br)cc1)C(C)(C)C", "strain or isolate": "RCMB 002003", "method": "agar", "value": "7.8 µg/mL"}
{"compound": "CC(=O)Oc1cc(Cl)ccc1C(=O)N(C(C)=O)c1ccc(Br)cc1", "strain or isolate": "231", "value": "≤31.25 µg/mL"}
{"compound": "O=C(CSc1nnc(-c2ccc3ncccc3c2)o1)Nc1nc2ccc(Cl)cc2s1", "method": "agar", "value": "100 µg/mL"}
{"compound": "CCC(C)n1ncn(-c2ccc(N3CCN(c4ccc(OC[C@H]5CO[C@](Cn6cncn6)(c6ccc(Cl)cc6Cl)O5)cc4)CC3)cc2)c1=O", "strain or isolate": "Clinical isolates", "value": "2 µg/mL"}
{"compound": "CCCCCc1ccc(C(=O)Oc2c(OC)cc3ccnc4c3c2N(C)C=C4)cc1", "value": "10 µg/mL"}
{"compound": "Cc1onc(-c2ccc(Cl)cc2Cl)c1C=O", "strain or isolate": "Clinical isolates", "value": "25 µg/mL"}
{"compound": "COc1cc([C@@H]2CC(=O)c3c(O)cc(O)cc3C2)ccc1F", "strain or isolate": "Clinical isolate H237", "value": "304 µg/mL"}
{"compound": "O=C(CSc1nnc(-c2ccc3ncccc3c2)o1)Nc1nc2ccc(F)cc2s1", "method": "agar", "value": "25 µg/mL"}
{"compound": "O=Cc1cc(-c2ccc(Cl)cc2)no1", "strain or isolate": "Clinical isolates", "value": "50 µg/mL"}
{"compound": "CC1C=C(c2ccc([N+](=O)[O-])cc2)C(=O)O1", "strain or isolate": "231", "value": ">125 µM"}
{"compound": "CCCCCCCCS(=O)(=O)[C@H](C)[C@](O)(Cn1cncn1)c1ccc(F)cc1F", "strain or isolate": "MTU6001", "value": "0.78 µg/mL"}
{"compound": "COC(=O)N[C@H](C(=O)NN(CCC[C@@]1(Cc2ccccc2)C(=O)N(C2c3ccccc3C[C@H]2O)C[C@H]1O)Cc1ccc(-c2ccccn2)cc1)C(C)(C)C", "strain or isolate": "RCMB 002003", "method": "agar", "value": "7.8 µg/mL"}
{"compound": "C[C@H]1[C@H](O)[C@@H](C)/C=C/C=C/C=C/C=C/C=C/C=C/C=C/[C@H](O[C@@H]2O[C@H](C)[C@@H](O)[C@H](N)[C@@H]2O)C[C@@H]2O[C@](O)(C[C@@H](O)C[C@@H](O)CC[C@H](O)[C@@H](O)C[C@@H](O)CC(=O)O[C@H]1C)C[C@H](O)[C@H]2C(=O)O", "strain or isolate": "IAM2034", "value": "0.4 µg/mL"}
{"compound": "COC(=O)N[C@H](C(=O)NN(CC[C@@]1(Cc2ccccc2)C(=O)N(C2c3ccccc3C[C@H]2O)C[C@H]1O)Cc1ccc(-c2ccncc2)cc1)C(C)(C)C", "strain or isolate": "RCMB 002003", "method": "agar", "value": "7.8 µg/mL"}
{"compound": "COc1cc(O)c2c(c1)C(=O)c1c(cc3c(c1O)-c1c(cc(C)c(C(=O)N[C@H](C)C(=O)O)c1O)[C@H](O[C@@H]1O[C@H](C)[C@H](O)[C@H](O[C@@H]4OC[C@@H](O)[C@H](O)[C@H]4O)[C@H]1O)[C@H]3O)C2=O", "strain or isolate": "5 isolates", "value": "2.5–5 µg/mL"}
{"compound": "CC(=O)Oc1cc(Cl)ccc1C(=O)Nc1cccc(Cl)c1", "strain or isolate": "231", "value": "7.81 µg/mL"}
{"compound": "Cc1c(C(c2ccccc2)n2ccnc2)cnn1-c1ccccc1", "value": ">200 µM"}
{"compound": "CCCC[C@@H](C)/C=C(C)/C=C(\\C)C(=O)N/C(=C/[C@@](C)(O)/C=C/C=C/C=C/C(=O)NC1=C(O)CCC1=O)C(=O)[C@@H]1CO1", "strain or isolate": "2", "method": "broth dilution", "value": "400 µM"}
{"compound": "CCCCCCCCCCS(=O)(=O)[C@H](C)[C@](O)(Cn1cncn1)c1ccc(F)cc1F", "strain or isolate": "MTU6001", "value": "3.13 µg/mL"}
{"compound": "COc1cc2ccnc3c2c(c1OC(=O)c1ccc(C(C)(C)C)cc1)N(C)C=C3", "value": "10 µg/mL"}
{"compound": "C[C@@H](n1ccn(-c2ccc(C(F)(F)F)cc2)c1=O)C(O)(Cn1cncn1)c1ccc(F)cc1F", "strain or isolate": "IFO6344", "value": "4 µg/mL"}
{"compound": "CCC(C)CCCCCCC1CC(=O)NCC(=O)N[C@@H](CCCN)C(=O)N[C@@H](C(C)CC)C(=O)N1", "strain or isolate": "IFM41088", "value": ">80 µg/mL"}
{"compound": "O=Cc1cc(-c2ccc(F)cc2)no1", "strain or isolate": "Clinical isolates", "value": "50 µg/mL"}
{"compound": "CC1C=C(c2ccc(Cl)cc2Cl)C(=O)O1", "strain or isolate": "231", "value": "62.5 µM"}
{"compound": "CC(=O)Oc1cc(Cl)ccc1C(=O)Nc1ccc(Cl)cc1", "strain or isolate": "231", "value": "7.81 µg/mL"}
{"compound": "CCCCCC1C=C(c2cccc(Cl)c2)C(=O)O1", "strain or isolate": "231", "value": "31.25 µM"}
{"compound": "O=C(CSc1nnc(-c2ccc3ncccc3c2)o1)Nc1nc2ccccc2s1", "method": "agar", "value": "100 µg/mL"}
{"compound": "CC(=O)Oc1c(Cl)cccc1C(=O)Nc1ccc(Cl)c(Cl)c1", "strain or isolate": "231", "value": "62.5 µg/mL"}
{"compound": "C[C@@H](n1ncn(-c2ccc(OCC(F)(F)C(F)F)cc2)c1=O)[C@](O)(Cn1cncn1)c1ccc(F)cc1F", "strain or isolate": "IFO6344", "value": "2 µg/mL"}
{"compound": "CCCCCCCCCS(=O)(=O)[C@H](C)[C@](O)(Cn1cncn1)c1ccc(F)cc1F", "strain or isolate": "MTU6001", "value": "≤0.2 µg/mL"}
{"compound": "CCCc1c(C(c2ccccc2)n2ccnc2)cnn1-c1ccccc1", "value": ">200 µM"}
{"compound": "CCOC(=O)C1=C(C)NC(C)=C(C(=O)OCC)C1c1ccc(OC)cc1", "value": "15.62 µg/mL"}
{"compound": "CC(=O)Oc1cc(Cl)ccc1C(=O)Nc1ccc(Br)cc1", "strain or isolate": "231", "value": "7.81 µg/mL"}
{"compound": "COc1ccc(NC(=O)CSc2nnc(-c3ccc4ncccc4c3)o2)cc1", "method": "agar", "value": "100 µg/mL"}
{"compound": "CCOC(=O)C1=C(C)NC(C)=C(C(=O)OCC)C1c1cccc(OCC(O)CCl)c1", "value": "500 µg/mL"}
{"compound": "CC1C=C(c2ccc(Br)c3ccccc23)C(=O)O1", "strain or isolate": "231", "value": "62.5 µM"}
{"compound": "O=Cc1cc(-c2cccc(Cl)c2)no1", "strain or isolate": "Clinical isolates", "value": "25 µg/mL"}
{"compound": "c1ccc(-c2c(C(c3ccccc3)n3cncn3)cnn2-c2ccccc2)cc1", "value": ">200 µM"}
{"compound": "O=C1C[C@@H](c2ccc(F)cc2)Cc2cc(O)cc(O)c21", "strain or isolate": "Clinical isolate H237", "value": "137 µg/mL"}
{"compound": "CC(C)(C)c1c(C(c2ccccc2)n2ccnc2)cnn1-c1ccccc1", "value": ">200 µM"}
{"compound": "CCC1C=C(c2ccc(C)cc2)C(=O)O1", "strain or isolate": "231", "value": ">125 µM"}
{"compound": "COC(=O)N[C@H](C(=O)NN(CC[C@@]1(Cc2ccccc2)C(=O)N(C2c3ccccc3C[C@H]2O)C[C@@H]1O)Cc1ccc(-c2ccncc2)cc1)C(C)(C)C", "strain or isolate": "RCMB 002003", "method": "agar", "value": "7.8 µg/mL"}
{"compound": "CC1C=C(c2ccc(F)c(F)c2)C(=O)O1", "strain or isolate": "231", "value": "62.5 µM"}
{"compound": "O=C(CSc1nnc(-c2ccc3ncccc3c2)o1)Nc1ccc(Br)cc1", "method": "agar", "value": "25 µg/mL"}
{"compound": "CCS[C@H](C)[C@](O)(Cn1cncn1)c1ccc(F)cc1F", "strain or isolate": "MTU6001", "value": "12.5 µg/mL"}
{"compound": "C[C@@H](n1ccn(-c2ccc(OC(F)(F)C(F)F)cc2)c1=O)C(O)(Cn1cncn1)c1ccc(F)cc1F", "strain or isolate": "IFO6344", "value": "1 µg/mL"}
{"compound": "CCOC(=O)C1=C(C)NC(C)=C(C(=O)OCC)C1c1cccc(Cl)c1", "value": ">1000 µg/mL"}
{"compound": "CC(C)c1c(C(c2ccccc2)n2ccnc2)cnn1-c1ccccc1", "value": ">200 µM"}
{"compound": "CCCCCCS[C@H](C)[C@](O)(Cn1cncn1)c1ccc(F)cc1F", "strain or isolate": "MTU6001", "value": "≤0.2 µg/mL"}
{"compound": "CC1C=C(c2cc3ccccc3n2C)C(=O)O1", "strain or isolate": "231", "value": ">125 µM"}
{"compound": "CN[C@@H]1[C@H](O[C@@H]2OC[C@@H](O)[C@H](O)[C@H]2O)[C@@H](O)[C@H](O[C@H]2c3cc(C)c(C(=O)N[C@H](C)C(=O)O)c(O)c3-c3c(cc4c(c3O)C(=O)c3cc(OC)cc(O)c3C4=O)[C@@H]2O)O[C@@H]1C", "strain or isolate": "IAM2530", "value": "1.6 µg/mL"}

A second listing of 8 rows from above:

COc1ccc(NC(=O)CSc2nnc(-c3ccc4ncccc4c3)o2)cc1 ; method: agar ; value: 100 µg/mL
O=C(CSc1nnc(-c2ccc3ncccc3c2)o1)Nc1nc2ccc(Cl)cc2s1 ; method: agar ; value: 100 µg/mL
CC1C=C(c2ccc([N+](=O)[O-])cc2)C(=O)O1 ; strain or isolate: 231 ; value: >125 µM
C[C@@H](n1ncn(-c2ccc(OCC(F)(F)C(F)F)cc2)c1=O)[C@](O)(Cn1cncn1)c1ccc(F)cc1F ; strain or isolate: IFO6344 ; value: 2 µg/mL
CCC(C)n1ncn(-c2ccc(N3CCN(c4ccc(OC[C@H]5CO[C@](Cn6cncn6)(c6ccc(Cl)cc6Cl)O5)cc4)CC3)cc2)c1=O ; strain or isolate: Clinical isolates ; value: 2 µg/mL
CC(C)CCCCCCCCCC1CC(=O)NCC(=O)N[C@@H](CCCCN)C(=O)N[C@@H](C(C)C)C(=O)N1 ; strain or isolate: IFM4942 ; value: >80 µg/mL
CCC1C=C(c2ccc(C)cc2)C(=O)O1 ; strain or isolate: 231 ; value: >125 µM
CC(=O)Oc1cc(Cl)ccc1C(=O)N(C(C)=O)c1ccc(Br)cc1 ; strain or isolate: 231 ; value: ≤31.25 µg/mL